Compound potency records, mixed from different reports. Data source: NIAID ChemDB in PubChem.

All rows: growth or infection tests; organism: Mycobacterium avium intracellulare; read-out: MIC

Conditions beyond the fields shown may differ between rows.

C#CCNC(=O)O[C@H]1C(O[C@@H]2[C@@H](C)[C@H](O[C@H]3C[C@@](C)(OC)[C@@H](OC(C)=O)[C@H](C)O3)[C@@H](C)C(=O)O[C@H](CC)[C@@](C)(O)[C@H](O)[C@@H](C)/C(=N/OCCCC3CCCCC3)[C@H](C)CC2(C)O)O[C@H](C)C[C@@H]1N(C)C ; strain: 20066 ; result: 0.2 µg/mL
CCCCCCCCCCNNC(=O)O[C@H]1[C@H](O[C@@H]2[C@@H](C)[C@H](O[C@H]3C[C@@](C)(OC)[C@@H](OC(C)=O)[C@H](C)O3)[C@@H](C)C(=O)O[C@H](CC)[C@@](C)(O)[C@H](O)[C@@H](C)/C(=N/OCCCC3CCCCC3)[C@H](C)CC2(C)O)O[C@H](C)C[C@@H]1N(C)C ; strain: 20066 (clarithromycin-susceptible) ; result: >50 µg/mL
CC(=O)NC[C@H]1CN(c2ccc(N3CCN(c4ccc([N+](=O)[O-])s4)CC3)c(F)c2)C(=O)O1 ; strain: 540/96 ; result: 1 µg/mL
CCCCO/N=C1\[C@H](C)CC(C)(O)[C@H](O[C@@H]2O[C@H](C)C[C@H](N(C)C)[C@H]2O)[C@@H](C)[C@H](O[C@H]2C[C@@](C)(OC)[C@@H](OC(C)=O)[C@H](C)O2)[C@@H](C)C(=O)O[C@H](CC)[C@@](C)(O)[C@H](O)[C@H]1C ; strain: 20066 (clarithromycin-susceptible) ; result: >50 µg/mL
CCNC(=O)O[C@H]1C(O[C@@H]2[C@@H](C)[C@H](O[C@H]3C[C@@](C)(OC)[C@@H](OC(C)=O)[C@H](C)O3)[C@@H](C)C(=O)O[C@H](CC)[C@@](C)(O)[C@H](O)[C@@H](C)/C(=N/OCCCC3CCCCC3)[C@H](C)CC2(C)O)O[C@H](C)C[C@@H]1N(C)C ; strain: 20075 ; result: 12.5 µg/mL
Clc1ccc2c(c1)nc1cc(Nc3ccccc3)c(=NC3CCCCC3)cc-1n2-c1ccccc1 ; strain: 98562 ; result: 1 µg/mL
CC[C@H]1OC(=O)[C@H](C)[C@@H](OC2C[C@@](C)(OC)[C@@H](OC(=O)CCc3ccccc3)[C@H](C)O2)[C@H](C)[C@@H](O[C@@H]2O[C@H](C)C[C@H](N(C)C)[C@H]2O)C(C)(O)C[C@@H](C)/C(=N\OCCCOc2ccccc2)[C@H](C)[C@@H](O)[C@]1(C)O ; strain: 20066 (clarithromycin-susceptible) ; result: 0.78 µg/mL
CO[C@H]1/C=C/O[C@@]2(C)Oc3c(C)c(O)c4c(O)c(c5c(c4c3C2=O)NC2(CCN(CC(C)C)CC2)N=5)=NC(=O)/C(C)=C\C=C\[C@H](C)[C@H](O)[C@@H](C)[C@@H](O)[C@@H](C)[C@H](OC(C)=O)[C@@H]1C ; strain: N-499 (HIV-) ; result: 0.0313 µg/mL
NC[C@H]1O[C@H](O[C@H]2[C@H](O)[C@@H](O[C@H]3O[C@H](CO)[C@@H](O)[C@H](N)[C@H]3O)[C@H](N)C[C@@H]2N)[C@H](O)[C@@H](O)[C@@H]1O ; strain: CIPT 140310034 ; result: 5 µg/mL
C[C@@H]1CN(c2c(F)c(N)c3c(=O)c(C(=O)O)cn(C4CC4)c3c2F)C[C@H](C)N1 ; strain: N-919 (HIV-) ; result: 0.5 µg/mL
CC[C@H]1OC(=O)[C@H](C)[C@@H](O[C@H]2C[C@@](C)(OC)[C@@H](OC(C)=O)[C@H](C)O2)[C@H](C)[C@@H](O[C@@H]2O[C@H](C)C[C@H](N(C)C)[C@H]2OC(=O)NNCCCCc2ccccc2)C(C)(O)C[C@@H](C)/C(=N\OCCCC2CCCCC2)[C@H](C)[C@@H](O)[C@]1(C)O ; strain: 20066 (clarithromycin-susceptible) ; result: 1.56 µg/mL
C[C@@H](O)[C@H]1C(=O)N2C(C(=O)O)=C(SCCN=CN)C[C@H]12 ; strain: CIPT 140310021 ; result: 5 µg/mL
CO[C@H]1/C=C/O[C@@]2(C)Oc3c(C)c(O)c4c(O)c(c(/C=N/N5CCN(C6CCCC6)CC5)c(O)c4c3C2=O)NC(=O)/C(C)=C\C=C\[C@H](C)[C@H](O)[C@@H](C)[C@@H](O)[C@@H](C)[C@H](OC(C)=O)[C@@H]1C ; strain: SKV ; result: 0.25 µg/mL
CCCCCCCCNC(=O)O[C@H]1C(O[C@@H]2[C@@H](C)[C@H](O[C@H]3C[C@@](C)(OC)[C@@H](OC(C)=O)[C@H](C)O3)[C@@H](C)C(=O)O[C@H](CC)[C@@](C)(O)[C@H](O)[C@@H](C)/C(=N/OCCCC3CCCCC3)[C@H](C)CC2(C)O)O[C@H](C)C[C@@H]1N(C)C ; strain: 20073 ; result: 0.39 µg/mL
CC[C@H]1OC(=O)[C@H](C)[C@@H](OC(=O)c2ccccc2)[C@H](C)[C@@H](O[C@@H]2O[C@H](C)C[C@H](N(C)C)[C@H]2O)C(C)(O)C[C@@H](C)/C(=N\OCCCOc2ccccc2)[C@H](C)[C@@H](O)[C@]1(C)O ; strain: 20066 (clarithromycin-susceptible) ; result: 6.25 µg/mL
Cc1onc(-c2ccccc2Cl)c1C(=O)N[C@@H]1C(=O)N2[C@@H]1SC(C)(C)[C@@H]2C(=O)O ; strain: CIPT 140310054 ; result: >100 µg/mL
CC[C@H]1OC(=O)[C@H](C)[C@@H](OC2C[C@@](C)(OC)[C@@H](O)[C@H](C)O2)[C@H](C)[C@@H](O[C@@H]2O[C@H](C)C[C@H](N(C)C)[C@H]2O)C(C)(O)C[C@@H](C)/C(=N\OCC2CCCCC2)[C@H](C)[C@@H](O)[C@]1(C)O ; strain: 20066 (clarithromycin-susceptible) ; result: 6.25 µg/mL
NNC(=O)c1ccncc1 ; strain: N-551 (HIV-) ; result: 2 µg/mL
CCNC(=O)[C@@H](NC(=O)Cc1ccccc1)[C@@H]1N[C@@H](C(=O)NCCNC(=O)[C@@H]2N[C@@H]([C@H](NC(=O)Cc3ccccc3)C(=O)NCC)SC2(C)C)C(C)(C)S1 ; strain: CIPT 140310030 ; result: 50 µg/mL
CCCCNC(=O)O[C@H]1C(O[C@@H]2[C@@H](C)[C@H](O[C@H]3C[C@@](C)(OC)[C@@H](OC(C)=O)[C@H](C)O3)[C@@H](C)C(=O)O[C@H](CC)[C@@](C)(O)[C@H](O)[C@@H](C)/C(=N/OCCCC3CCCCC3)[C@H](C)CC2(C)O)O[C@H](C)C[C@@H]1N(C)C ; strain: 20075 ; result: 0.2 µg/mL
CO[C@H]1/C=C/O[C@@]2(C)Oc3c(C)c(O)c4c(=O)c(c5oc6cc(N7CCN(CC(C)C)CC7)cc(=O)c6nc5c4c3=C2O)NC(=O)/C(C)=C\C=C\[C@H](C)[C@H](O)[C@@H](C)[C@@H](O)[C@@H](C)[C@H](OC(C)=O)[C@@H]1C ; strain: N-499 (HIV-) ; result: 0.004 µg/mL
CC[C@H]1OC(=O)[C@H](C)[C@@H](O[C@H]2C[C@@](C)(OC)[C@@H](OC(C)=O)[C@H](C)O2)[C@H](C)[C@@H](O[C@@H]2O[C@H](C)C[C@H](N(C)C)[C@H]2OC(=O)NNCc2ccccc2)C(C)(O)C[C@@H](C)/C(=N\OCCCC2CCCCC2)[C@H](C)[C@@H](O)[C@]1(C)O ; strain: 20066 (clarithromycin-susceptible) ; result: 1.56 µg/mL

The last 2 rows once more:

structure | strain | result
CO[C@H]1/C=C/O[C@@]2(C)Oc3c(C)c(O)c4c(=O)c(c5oc6cc(N7CCN(CC(C)C)CC7)cc(=O)c6nc5c4c3=C2O)NC(=O)/C(C)=C\C=C\[C@H](C)[C@H](O)[C@@H](C)[C@@H](O)[C@@H](C)[C@H](OC(C)=O)[C@@H]1C | N-499 (HIV-) | 0.004 µg/mL
CC[C@H]1OC(=O)[C@H](C)[C@@H](O[C@H]2C[C@@](C)(OC)[C@@H](OC(C)=O)[C@H](C)O2)[C@H](C)[C@@H](O[C@@H]2O[C@H](C)C[C@H](N(C)C)[C@H]2OC(=O)NNCc2ccccc2)C(C)(O)C[C@@H](C)/C(=N\OCCCC2CCCCC2)[C@H](C)[C@@H](O)[C@]1(C)O | 20066 (clarithromycin-susceptible) | 1.56 µg/mL